Assay results from patent publication US20230380451A1, “MEANS AND METHODS TO DETOXIFY MYCOTOXINS” (priority 2020, published 2023).

System: SEQ ID NO. 5 (TAM-Ac)
Assay: Transamination (transformation) assay with TAM-Ac, QTOF-MS analysis
Format: biochemical
Settings: substrate with TAM-Ac, 30° C.

Substance: (7α)-7,15-dihydroxy-12,13-epoxytrichothec-9-en-3,8-one
- QTOF analysis result: 3-keto-DON (T0 h): 2.69E+05
- QTOF analysis result: 8-amino-DON (T0 h): 6.47E+02
- QTOF analysis result: DON (T0 h): 1.07E+03
- QTOF analysis result: 3-keto-DON (T3 h): 2.62E+05
- QTOF analysis result: 8-amino-3-keto-DON RT 0.6 min (T3 h): 8.32E+03
- QTOF analysis result: 8-amino-3-keto-DON RT 1.2 min (T3 h): 1.03E+04
- QTOF analysis result: 8-amino-DON (T3 h): 5.56E+02
- QTOF analysis result: DON (T3 h): 1.17E+03
- QTOF analysis result: 3-keto-DON (T18 h): 3.02E+05
- QTOF analysis result: 8-amino-3-keto-DON RT 0.6 min (T18 h): 1.04E+05
- QTOF analysis result: 8-amino-3-keto-DON RT 1.2 min (T18 h): 1.32E+05
- QTOF analysis result: 8-amino-DON (T18 h): 2.70E+02
- QTOF analysis result: DON (T18 h): 1.84E+03
